Assay results: patent US20040235012A1, “Method of detecting antibiotic resistance in microorganisms” (priority 2003, published 2004)

Test system: MRSA and borderline S. aureus strains
Assay: Screening of MRSA and borderline S. aureus strains on chromogenic agar supplemented with a β-lactam
Assay type: cell-based, Staphylococcus aureus
Conditions: for Sensitivity: 35-37 °C, 24 hours
[1] = ceftazidime at 16 ug/ml in chromogenic agar, 21 strains
[2] = safoxitin at 6 ug/ml in chromogenic agar, 22 strains
[3] = moxalactam at 16 ug/ml in chromogenic agar, 22 strains
[4] = cefmetazole at 2.25 ug/ml in chromogenic agar, 11 strains

Structure (SMILES): CC(C)(O/N=C(\C(=O)N[C@@H]1C(=O)N2C(C(=O)[O-])=C(C[n+]3ccccc3)CS[C@H]12)c1csc(N)n1)C(=O)O [CAZ, ceftazidime]
- Accuracy [1]: 42.9 percentage
- Negative Predictive Value [1]: 20 percentage
- Positive Predictive Value [1]: 100 percentage
- Specificity [1]: 100 percentage

Structure (SMILES): CO[C@@]1(NC(=O)Cc2cccs2)C(=O)N2C(C(=O)O)=C(COC(N)=O)CS[C@@H]21 [FOX, safoxitin]
- Accuracy [2]: 90.9 percentage
- Negative Predictive Value [2]: 71.4 percentage
- Positive Predictive Value [2]: 100 percentage
- Specificity [2]: 100 percentage
- Sensitivity [2]: 88.2 percentage

Structure (SMILES): CO[C@@]1(NC(=O)C(C(=O)O)c2ccc(O)cc2)C(=O)N2C(C(=O)O)=C(CSc3nnnn3C)CO[C@@H]21 (stereo partly shown) [MOX, moxalactam]
- Accuracy [3]: 90.9 percentage
- Negative Predictive Value [3]: 71.4 percentage
- Positive Predictive Value [3]: 100 percentage
- Specificity [3]: 100 percentage
- Sensitivity [3]: 88.2 percentage

Structure (SMILES): CO[C@@]1(NC(=O)CSCC#N)C(=O)N2C(C(=O)O)=C(CSc3nnnn3C)CS[C@@H]21 [CMZ, cefmetazole]
- Accuracy [4]: 90.9 percentage
- Negative Predictive Value [4]: 100 percentage
- Positive Predictive Value [4]: 90 percentage
- Specificity [4]: 50 percentage
- Sensitivity [4]: 100 percentage
